The record followed here is patent publication US20150299272.

The test system of this data set is Caf1QDGN76RGDS mutant, Yersinia pestis. As to the kind of experiment: SDS-PAGE after partial heat dissociation (self-association).

As to Caf1QDGN76RGDS mutant, the result is on record as “binds”.
